According to patent US20090068243A1, “Novel formulations for delivery of antiviral peptide therapeutics” (priority 2007, published 2009):

Legend:
584.000098 = details: for Days in Culture: starting virus isolate 584.000098; for # of Mutations Acquired: starting virus isolate 584.000098, gp41 genotype
Excerpt: (§1) Assessment of biological properties included measurement of antiviral activity against HIV-1 strains. […] These assays score for reduction of infectious virus titer employing the indicator cell lines MAGI or the CCR5 expressing derivative cMAGI. Both cell lines exploit the ability of HIV-1 tat to transactivate the expression of a β-galactosidase reporter gene driven by the HIV-LTR. The β-gal reporter has been modified to localize in the nucleus and can be detected with the X-gal substrate as intense nuclear staining within a few days of infection. The number of stained nuclei can thus be interpreted as equal to the number of infectious virions in the challenge inoculum if there is only one round of infection prior to staining. […] In the MAGI and cMAGI assays, a 50% reduction in infectious titer (Vn/Vo=0.5) is significant, and provides the primary cutoff value for assessing antiviral activity (“IC50” is defined as the concentration of active ingredient resulting in a 50% reduction in infectious virus titer). […] The peptide (in the respective dilution) was added to the cMAGI or MAGI cells, followed by the virus inocula; and 24 hours later, an inhibitor of infection and cell-cell fusion (e.g., SEQ ID NO:2 (enfuvirtide)) was added to prevent secondary rounds of HIV infection and cell-cell virus spread. The cells were cultured for 2 more days, and then fixed and stained with the X-gal substrate to detect HIV-infected cells. The number of infected cells for each control and peptide dilution was determined with the CCD-imager, and then the IC50 was calculated (expressed in μg/ml).
(§2) In particular, in vitro resistance comparison studies were performed between the novel SEQ ID NO:9 compound of interest and established antiviral agent SEQ ID NO:2, described in detail as follows: MT2 cells were infected with virus isolates (IIIB, 030, 060 and 098) and cultured in increasing concentrations of SEQ ID NO:2 (enfuvirtide) or SEQ ID NO:9 to select for resistance. The initial peptide concentration was approximately 2 times the IC50 of each peptide against the corresponding wild type isolate. Peptide concentrations were maintained by adding fresh peptide every 1-3 days. Cultures were monitored for cytopathic effect (CPE) using standard techniques and when maximal CPE was achieved, a small aliquot of virus was used for subsequent rounds of infection. Peptide concentrations were increased 2 to 4-fold depending on the length of time in culture when compared to the growth rate of wild type virus. During the course of selection, peptide-free virus stocks were also collected. Peptide-free virus stocks were characterized for gp41 genotypic changes by dideoxy sequencing chemistries and phenotypic susceptibility was determined using a cMAGI infectivity assay.

584.000060 = details: for Days in Culture: starting virus isolate 584.000060; for # of Mutations Acquired: starting virus isolate 584.000060, gp41 genotype
Excerpt: as §1, §2

584.000030 = details: starting virus isolate 584.000030, gp41 genotype
Excerpt: as §1, §2

IIIB = details: starting virus isolate IIIB; for # of Mutations Acquired: gp41 genotype
Excerpt: as §1, §2

[1] = test system: virus isolates (IIIB, 030, 060 and 098)
Excerpt: as §1, §2

[2] = Geometric Mean of four isolates

| Substance | Days in Culture (584.000098) | # of Mutations Acquired (584.000098) | Days in Culture (584.000060) | # of Mutations Acquired (584.000060) | # of Mutations Acquired (584.000030) | Days in Culture (IIIB) | # of Mutations Acquired (IIIB) | # of Mutations Acquired [1, 2] | Days in Culture [1, 2] | time in culture relative to SEQ ID NO:2 selections ([1]; average over selections) |
| --- | --- | --- | --- | --- | --- | --- | --- | --- | --- | --- |
| Ac-TTWEAWDRAIAEYAARIEALLRALQEQQEKNEAALREL-NH2 [SEQ ID NO:9, TTWEAWDRAIAEYAARIEALLRALQEQQEKNEAALREL] | 173 days | 5 | 173 days | 4 | 2 | 168 days | 4 | 3.6 | 140 days | ~3 times |
| enfuvirtide | 45 days | 1 | 46 days | 2 | 2 | 62 days | 2 |  | 49 days |  |
